A mixed list of measured activities; the numbers were collected in NIAID ChemDB.

Shared fields: growth or infection tests; agent: Toxoplasma gondii

Lines come from different laboratories, so protocols vary. A number after MIC or MFC names an inhibition level or a share of isolates. Percent inhibition refers to the dose given; in toxicity tests it is the harm to the cells. Blank or dashed fields: not listed here. ECn: concentration that inhibits the pathogen or its effect by n%.

compound	strain or isolate	cell line	setting	read-out	tested at	result
CC[C@H]1OC(=O)[C@H](C)[C@@H](O[C@H]2C[C@@](C)(OC)[C@@H](O)[C@H](C)O2)[C@H](C)[C@@H](O[C@@H]2O[C@H](C)C[C@H](N(C)C)[C@H]2O)[C@](C)(O)C[C@@H](C)CN(C)[C@H](C)[C@@H](O)[C@]1(C)O	RH	-	40 h	inhibition	25.4 µg/mL	90%
COc1ccc(OCc2ccccc2C(=O)NC(=S)Nc2cccc(Br)c2)cc1	RH beta-gal	Human foreskin fibroblasts (HFF)	-	EC50	-	31 µM
N#Cc1ccc(CSc2ncnc3c2ncn3[C@@H]2O[C@H](CO)[C@@H](O)[C@H]2O)cc1	RH (WILD TYPE)	-	-	inhibition	5 µM	38.5%
CCc1ccc(NC(=O)CC(=O)Nc2ccccc2O)cc1	-	Human foreskin fibroblasts	-	MIC50	-	>0.125 µM
CN1CCC(c2cc(-c3ccncc3)c(-c3ccc(F)cc3)[nH]2)CC1	TG-PKG FLAG T761Q	-	-	EC50	-	5 µM
COc1ccc(OCc2ccccc2C(=O)NC(=S)Nc2ccc(I)cc2)cc1	RH beta-gal	Human foreskin fibroblasts (HFF)	-	EC50	-	25 µM
O=C(NC(=O)c1ccccc1O)c1ccc(NC(=O)c2ccccc2C(=O)O)cc1	-	Human foreskin fibroblasts	-	MIC50	-	>1 µM
CC(C)(C)c1ccc(CSc2ncnc3c2ncn3[C@@H]2O[C@H](CO)[C@@H](O)[C@H]2O)cc1	RH (WILD TYPE)	-	-	inhibition	5 µM	16.7%
O=C(NC(=S)Nc1ccc(Cl)cc1)c1ccccc1COc1ccc(Cl)cc1	RH beta-gal	Human foreskin fibroblasts (HFF)	-	EC50	-	7 µM
CCN(CC)c1ccc(C(=O)NS(=O)(=O)c2ccccc2OC)cc1	-	Human foreskin fibroblasts	-	MIC50	-	>0.25 µM
N#CC(c1ccc(Cl)cc1)c1c(Cl)cc(-n2ncc(=O)[nH]c2=O)cc1Cl	RH	-	-	inhibition	1 µg/mL	100%
COc1ccc(OCc2ccccc2C(=O)NC(=S)Nc2cccc(Cl)c2)cc1	RH beta-gal	Human foreskin fibroblasts (HFF)	-	EC50	-	39 µM
CCc1ccc(C(=O)NS(=O)(=O)c2ccccc2O)cc1	-	Human foreskin fibroblasts	-	MIC50	-	>0.25 µM
COc1ccc(OCc2ccccc2C(=O)NC(=S)Nc2cccc(I)c2)cc1	RH beta-gal	Human foreskin fibroblasts (HFF)	-	EC50	-	132 µM
O=C(NC(=O)c1ccccc1O)c1ccc(F)cc1	-	Human foreskin fibroblasts	-	MIC90	-	>1 µM

Again, the opening 2 rows:

compound,strain or isolate,cell line,setting,read-out,tested at,result
CC[C@H]1OC(=O)[C@H](C)[C@@H](O[C@H]2C[C@@](C)(OC)[C@@H](O)[C@H](C)O2)[C@H](C)[C@@H](O[C@@H]2O[C@H](C)C[C@H](N(C)C)[C@H]2O)[C@](C)(O)C[C@@H](C)CN(C)[C@H](C)[C@@H](O)[C@]1(C)O,RH,-,40 h,inhibition,25.4 µg/mL,90%
COc1ccc(OCc2ccccc2C(=O)NC(=S)Nc2cccc(Br)c2)cc1,RH beta-gal,Human foreskin fibroblasts (HFF),-,EC50,-,31 µM